# According to patent publication US20190127444A1, “Compositions and methods for anti-staphylococcal biologic agents” (NEW YORK UNIVERSITY, published 2019):
# T1: LukAB^mut3 stem domain mutant variant (S. aureus, UniProt Q2FFA2 31-351; P21224 30-338)
# T1 sequence 1: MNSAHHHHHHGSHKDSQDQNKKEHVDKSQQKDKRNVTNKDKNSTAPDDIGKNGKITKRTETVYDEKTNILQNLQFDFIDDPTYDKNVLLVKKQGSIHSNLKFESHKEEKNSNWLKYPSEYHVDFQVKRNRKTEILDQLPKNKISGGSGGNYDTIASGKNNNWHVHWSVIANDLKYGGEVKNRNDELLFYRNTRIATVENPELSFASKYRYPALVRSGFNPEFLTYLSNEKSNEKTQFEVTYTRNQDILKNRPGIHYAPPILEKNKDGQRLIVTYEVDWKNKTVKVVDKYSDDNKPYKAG
# T1 sequence 2: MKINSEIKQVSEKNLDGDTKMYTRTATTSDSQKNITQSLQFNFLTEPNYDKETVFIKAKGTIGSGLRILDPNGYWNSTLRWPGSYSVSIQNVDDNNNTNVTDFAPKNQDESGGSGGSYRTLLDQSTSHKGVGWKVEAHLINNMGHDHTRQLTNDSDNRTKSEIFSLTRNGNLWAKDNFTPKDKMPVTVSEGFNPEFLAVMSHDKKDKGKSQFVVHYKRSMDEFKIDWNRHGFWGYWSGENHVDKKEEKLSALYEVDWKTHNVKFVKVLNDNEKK
# B1: Luk17-His-SA (designed binder)
# chain: MLPAPKNLVVSRVTEDSARLSWTAPDAAFDSFWITYEEKFYRGEAIVLTVPGSERSYDLTGLKPGTEYKVWIVGVKGGQGSWPLSAIFTTGGHHHHHHGGGLNDIFEAQKIEWHE
# B2: TENCON-His-SA (designed binder)
# chain: MLPAPKNLVVSRVTEDSARLSWTAPDAAFDSFLIQYQESEKVGEAIVLTVPGSERSYDLTGLKPGTEYTVSIYGVKGGHRSNPLSAIFTTGGHHHHHHGGGLNDIFEAQKIEWHE
# notes: also called parental control FN3 domain protein
# Assays:
# [1] = molecular target: T1, LukAB^mut3 stem domain mutant variant; assay: BLI, FN3 protein on streptavidin pins, LukAB variant at 10 ug/mL
# [2] = molecular target: T1, LukAB^mut3 stem domain mutant variant; assay: BLI, FN3 protein on streptavidin pins, LukAB variant in solution
Binder,binding result [1],binding result [2]
B1,binds,–
B2,–,no binding (tested: 10 ug/mL)
